Molecules are shown by their SMILES. Where only a bound is given, the exact number is not on record here.

The chains behind the UniProt entries cited, without tags or fusion partners.
UniProt P15390, whole entry: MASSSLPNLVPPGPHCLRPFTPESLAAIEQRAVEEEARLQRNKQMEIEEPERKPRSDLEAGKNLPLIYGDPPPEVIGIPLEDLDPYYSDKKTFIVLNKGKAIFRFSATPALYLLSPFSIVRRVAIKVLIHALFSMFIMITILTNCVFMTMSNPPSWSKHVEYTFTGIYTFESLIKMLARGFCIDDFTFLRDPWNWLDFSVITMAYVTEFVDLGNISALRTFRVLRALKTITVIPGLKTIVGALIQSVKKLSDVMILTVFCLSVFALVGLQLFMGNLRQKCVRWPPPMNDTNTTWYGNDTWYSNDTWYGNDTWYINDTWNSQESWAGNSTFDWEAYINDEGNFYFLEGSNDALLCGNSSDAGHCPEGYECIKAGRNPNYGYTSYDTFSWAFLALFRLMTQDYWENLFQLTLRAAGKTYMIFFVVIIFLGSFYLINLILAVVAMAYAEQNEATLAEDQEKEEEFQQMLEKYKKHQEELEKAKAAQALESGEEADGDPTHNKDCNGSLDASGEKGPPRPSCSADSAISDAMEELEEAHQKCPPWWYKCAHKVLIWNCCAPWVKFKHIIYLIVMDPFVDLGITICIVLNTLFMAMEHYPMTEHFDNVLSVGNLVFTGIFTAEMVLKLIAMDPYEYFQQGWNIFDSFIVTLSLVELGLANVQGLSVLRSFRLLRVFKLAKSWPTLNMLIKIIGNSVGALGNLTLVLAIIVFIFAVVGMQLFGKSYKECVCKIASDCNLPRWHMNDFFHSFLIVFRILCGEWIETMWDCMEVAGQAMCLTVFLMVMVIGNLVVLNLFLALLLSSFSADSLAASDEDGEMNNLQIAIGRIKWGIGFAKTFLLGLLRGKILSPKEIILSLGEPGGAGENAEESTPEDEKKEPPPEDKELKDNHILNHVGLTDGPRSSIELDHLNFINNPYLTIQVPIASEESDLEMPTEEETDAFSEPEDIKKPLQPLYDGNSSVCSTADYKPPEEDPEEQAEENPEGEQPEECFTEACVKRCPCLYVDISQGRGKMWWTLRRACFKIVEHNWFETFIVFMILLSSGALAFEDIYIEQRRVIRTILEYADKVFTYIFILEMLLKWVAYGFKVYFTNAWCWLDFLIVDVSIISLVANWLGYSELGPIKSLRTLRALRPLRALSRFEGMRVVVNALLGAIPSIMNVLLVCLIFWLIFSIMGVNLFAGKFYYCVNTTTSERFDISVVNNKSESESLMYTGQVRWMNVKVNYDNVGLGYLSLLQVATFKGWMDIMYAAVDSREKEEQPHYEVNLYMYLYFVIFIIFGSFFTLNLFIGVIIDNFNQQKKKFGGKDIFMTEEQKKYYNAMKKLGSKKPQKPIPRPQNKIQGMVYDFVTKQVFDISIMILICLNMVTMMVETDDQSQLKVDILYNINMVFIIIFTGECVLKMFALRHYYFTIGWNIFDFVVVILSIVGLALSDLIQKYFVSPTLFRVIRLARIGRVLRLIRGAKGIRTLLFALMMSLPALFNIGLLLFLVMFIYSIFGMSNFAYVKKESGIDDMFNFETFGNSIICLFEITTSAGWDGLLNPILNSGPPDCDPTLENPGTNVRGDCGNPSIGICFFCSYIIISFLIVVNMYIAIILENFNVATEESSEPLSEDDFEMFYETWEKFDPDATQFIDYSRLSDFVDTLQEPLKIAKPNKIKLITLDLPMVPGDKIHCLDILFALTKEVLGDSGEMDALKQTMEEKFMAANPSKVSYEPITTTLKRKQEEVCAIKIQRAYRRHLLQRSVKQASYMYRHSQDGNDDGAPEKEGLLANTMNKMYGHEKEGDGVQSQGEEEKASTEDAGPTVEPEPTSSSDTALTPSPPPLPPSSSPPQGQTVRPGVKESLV

The values below come from paper PMC5128756, “The Role of Individual Disulfide Bonds of μ-Conotoxin GIIIA in the Inhibition of NaV1.4” (2016).

The assay concerns the target rNaV1.4 (Rattus norvegicus, UniProt P15390). Particulars: for blockade of rNaV1.4: at 100 μM, whole cell patch-clamp, HEK293 cells; for Inhibitory Potency: potency against rNaV1.4 relative to GIIIA (= 1).

What is called IC50 is the concentration at which inhibition is half-maximal. High values mean weaker potency, low ones greater potency. For `C[C@H](NC(=O)[C@H](C)NC(=O)[C@@H]1CSSC[C@H](NC(=O)[C@H](C)NC(=O)[C@H](CC(=O)O)NC(=O)[C@@H](N)CCCNC(=N)N)C(=O)N[C@@H]([C@@H](C)O)C(=O)N2C[C@H](O)C[C@H]2C(=O)N2C[C@H](O)C[C@H]2C(=O)N[C@@H](CCCCN)C(=O)N[C@@H](CCCCN)C(=O)N[C@@H](C)C(=O)N[C@@H](CCCCN)C(=O)N[C@@H](CC(=O)O)C(=O)N[C@@H](CCCNC(=N)N)C(=O)N[C@@H](CCC(N)=O)C(=O)N[C@@H](C)C(=O)N[C@@H](CCCCN)C(=O)N2C[C@H](O)C[C@H]2C(=O)N[C@@H](CCC(N)=O)C(=O)N[C@@H](CCCNC(=N)N)C(=O)N1)C(N)=O`, the half-maximal inhibitory concentration (IC50) is above 100 µM, the “blockade of rNaV1.4” value is listed as “did not exhibit any significant blockade” and the “Inhibitory Potency” value is below 0.0007.
As for `C[C@H](NC(=O)[C@@H]1CSSC[C@@H]2NC(=O)[C@H](CCCCN)NC(=O)[C@H](CCCCN)NC(=O)[C@@H]3C[C@@H](O)CN3C(=O)[C@@H]3C[C@@H](O)CN3C(=O)[C@H]([C@@H](C)O)NC(=O)[C@H](C)NC(=O)[C@@H](NC(=O)[C@H](CC(=O)O)NC(=O)[C@@H](N)CCCNC(=N)N)CSSC[C@H](NC(=O)[C@H](CCC(N)=O)NC(=O)[C@H](CCCNC(=N)N)NC(=O)[C@H](CC(=O)O)NC(=O)[C@H](CCCCN)NC2=O)C(=O)N[C@@H](CCCCN)C(=O)N2C[C@H](O)C[C@H]2C(=O)N[C@@H](CCC(N)=O)C(=O)N[C@@H](CCCNC(=N)N)C(=O)N[C@@H](C)C(=O)N1)C(N)=O`, the IC50 came out at 3.3 µM.
On the same count and under the same terms, the figure for `C[C@H](NC(=O)[C@@H]1CSSC[C@@H]2NC(=O)[C@H](CCCCN)NC(=O)[C@H](CCCCN)NC(=O)[C@@H]3C[C@@H](O)CN3C(=O)[C@@H]3C[C@@H](O)CN3C(=O)[C@H]([C@@H](C)O)NC(=O)[C@@H](NC(=O)[C@H](C)NC(=O)[C@H](CC(=O)O)NC(=O)[C@@H](N)CCCNC(=N)N)CSSC[C@H](NC(=O)[C@H](CCCNC(=N)N)NC(=O)[C@H](CCC(N)=O)NC(=O)[C@@H]3C[C@@H](O)CN3C(=O)[C@H](CCCCN)NC(=O)[C@H](C)NC(=O)[C@H](CCC(N)=O)NC(=O)[C@H](CCCNC(=N)N)NC(=O)[C@H](CC(=O)O)NC(=O)[C@H](CCCCN)NC2=O)C(=O)N1)C(N)=O` is 2.1 µM.
`C[C@H](NC(=O)[C@H](C)NC(=O)[C@H](C)NC(=O)[C@H](CCCNC(=N)N)NC(=O)[C@H](CCC(N)=O)NC(=O)[C@@H]1C[C@@H](O)CN1C(=O)[C@H](CCCCN)NC(=O)[C@H](C)NC(=O)[C@H](CCC(N)=O)NC(=O)[C@H](CCCNC(=N)N)NC(=O)[C@H](CC(=O)O)NC(=O)[C@H](CCCCN)NC(=O)[C@H](C)NC(=O)[C@H](CCCCN)NC(=O)[C@H](CCCCN)NC(=O)[C@@H]1C[C@@H](O)CN1C(=O)[C@@H]1C[C@@H](O)CN1C(=O)[C@@H](NC(=O)[C@H](C)NC(=O)[C@H](C)NC(=O)[C@H](CC(=O)O)NC(=O)[C@@H](N)CCCNC(=N)N)[C@@H](C)O)C(N)=O`: the half-maximal inhibitory concentration (IC50) was above 100 µM, the “blockade of rNaV1.4” value is given as “did not exhibit any significant blockade” and the “Inhibitory Potency” value is below 0.0007.
In the case of `C[C@H](NC(=O)[C@@H]1CSSC[C@H](NC(=O)[C@H](CCCCN)NC(=O)[C@H](CCCCN)NC(=O)[C@@H]2C[C@@H](O)CN2C(=O)[C@@H]2C[C@@H](O)CN2C(=O)[C@@H](NC(=O)[C@H](C)NC(=O)[C@H](C)NC(=O)[C@H](CC(=O)O)NC(=O)[C@@H](N)CCCNC(=N)N)[C@@H](C)O)C(=O)N[C@@H](CCCCN)C(=O)N[C@@H](CC(=O)O)C(=O)N[C@@H](CCCNC(=N)N)C(=O)N[C@@H](CCC(N)=O)C(=O)N[C@@H](C)C(=O)N[C@@H](CCCCN)C(=O)N2C[C@H](O)C[C@H]2C(=O)N[C@@H](CCC(N)=O)C(=O)N[C@@H](CCCNC(=N)N)C(=O)N[C@@H](C)C(=O)N1)C(N)=O`, the IC50 is above 100 µM, the “blockade of rNaV1.4” value was “did not exhibit any significant blockade” and the “Inhibitory Potency” value is below 0.0007.
As for `C[C@H](NC(=O)[C@H](C)NC(=O)[C@@H]1CSSC[C@@H]2NC(=O)[C@@H](NC(=O)[C@H](CC(=O)O)NC(=O)[C@@H](N)CCCNC(=N)N)CSSC[C@H](NC(=O)[C@H](CCC(N)=O)NC(=O)[C@H](CCCNC(=N)N)NC(=O)[C@H](CC(=O)O)NC(=O)[C@H](CCCCN)NC(=O)[C@H](C)NC(=O)[C@H](CCCCN)NC(=O)[C@H](CCCCN)NC(=O)[C@@H]3C[C@@H](O)CN3C(=O)[C@@H]3C[C@@H](O)CN3C(=O)[C@H]([C@@H](C)O)NC2=O)C(=O)N[C@@H](CCCCN)C(=O)N2C[C@H](O)C[C@H]2C(=O)N[C@@H](CCC(N)=O)C(=O)N[C@@H](CCCNC(=N)N)C(=O)N1)C(N)=O`, the IC50 was 15.8 µM.
Take `C[C@H](NC(=O)[C@H](C)NC(=O)[C@H](C)NC(=O)[C@H](CCCNC(=N)N)NC(=O)[C@H](CCC(N)=O)NC(=O)[C@@H]1C[C@@H](O)CN1C(=O)[C@H](CCCCN)NC(=O)[C@@H]1CSSC[C@H](NC(=O)[C@H](CC(=O)O)NC(=O)[C@@H](N)CCCNC(=N)N)C(=O)N[C@@H](C)C(=O)N[C@@H]([C@@H](C)O)C(=O)N2C[C@H](O)C[C@H]2C(=O)N2C[C@H](O)C[C@H]2C(=O)N[C@@H](CCCCN)C(=O)N[C@@H](CCCCN)C(=O)N[C@@H](C)C(=O)N[C@@H](CCCCN)C(=O)N[C@@H](CC(=O)O)C(=O)N[C@@H](CCCNC(=N)N)C(=O)N[C@@H](CCC(N)=O)C(=O)N1)C(N)=O`: the IC50 was above 100 µM, the “blockade of rNaV1.4” value was “did not exhibit any significant blockade” and the “Inhibitory Potency” value was below 0.0007.
